Consider two substances from article PMC3470408.

Series [1] relates to CC(C)=CCC/C(C)=C/CC/C(C)=C/CO[P@@](=O)(O)OP(=O)(O)O. Kind of series: purified protein. The note with it: pH 7.0; 37.0 °C.
The subject of series [2] is CC(C)=CCC/C(C)=C/COP(=O)(O)OP(=O)(O)O. Kind of series: purified protein. The note with it: pH 7.0; 37.0 °C.

Consider “Rv3383c (Mycobacterium tuberculosis H37Rv)”, for which the Km in series [1] came out at 19 ± 5 µM.

Regarding “Rv0562 (Mycobacterium tuberculosis H37Rv)”, the figures for the Km in series [2] and in series [1] were 2.3 ± 0.8 µM and 11 ± 3 µM, respectively.

By Km is commonly meant the substrate concentration at which the rate is half of its maximum.
